According to patent publication US11059855B2, “Antimicrobial peptides and methods of making and using same” (priority 2017, dated 2021):
Values joined by “and” are separate entries in the source; they are usually repeats but may differ in a detail not shown here. Equal values may be shown once.

Key:
[1] = previous work; cited from earlier work
[2] = Isothermal titration calorimetry, POPG; format: binding; conditions: for ΔH, POPG: titrated POPG vesicle; for Free energy of binding ΔG, POPG: ΔG=RT ln Kd
[3] = Isothermal titration calorimetry, POPC; format: binding; conditions: for ΔH, POPC: titrated POPC vesicle

Row | Substance | Transmembrane (TM) inserted fraction, pTM [1] | Stoichiometry N, POPG [2] | ΔS, POPG [2] | ΔH, POPG [2] [kJ/mol] | Free energy of binding ΔG, POPG [2] [kJ/mol] | ΔH, POPC [3] [kJ/mol] | ΔΔH between POPC and POPG [2] [kJ/mol] | Stoichiometry N, POPC [3] [lipids per peptide] | ΔS, POPC [3] | Free energy of binding ΔG, POPC ([3]; ΔG=RT ln Kd) [kJ/mol]
1 | GL5RL5G: polyleucine-based peptide of the acetyl-GLnRLnG-amide family, n=5 (SEQ ID NO: 28) (GLLLLLRLLLLLG; N-terminal acetyl, C-terminal amide) | 7±2% and 7% |  |  |  |  |  |  |  |  | 
2 | GL6RL6G: polyleucine-based peptide of the acetyl-GLnRLnG-amide family, n=6 (SEQ ID NO: 29) (GLLLLLLRLLLLLLG; N-terminal acetyl, C-terminal amide) | 35±8% and 35% |  |  |  |  |  |  |  |  | 
3 | GLLDDAKLLAKLAGW-AMIDE [Peptide 7D12] |  | 11 lipids per peptide and 12 lipids per peptide | 7.9 cal/mol K | -14.2 | ~23.8 | 0.42 |  |  |  | 
4 | H-GLDDLAKLLLKLAGW-NH2 [Peptide 25B2] |  | 5 lipids per peptide | 2.8-3.6 cal/mol K | -20.5 | ~23.8 | -19.7 | -0.879 | 5 | 2.8-3.6 cal/mol K | ~23.8
